Source: paper PMC5775428, “Towards an experimental classification system for membrane active peptides” (Scientific Reports, 2018)
Like-named read-outs stand apart in the source and are kept apart here.

Key:
[1] = PCA2 and hierarchical clustering of DSC data; design: key: Cluster 1 is composed by molecules with no significant interaction with the evaluated model membranes; Cluster 2 peptides present no detectable interaction with DMPC LUVs but disturb the main phase transition of 2:1 DMPC:DMPG LUVs; Cluster 3: Clusters 3 and 4 are populated by IAPs and AMPs that alter the main phase transition DMPC and 2:1 DMPC:DMPG LUVs and present significant and broad antimicrobial activity; Cluster 4: Clusters 3 and 4 are populated by IAPs and AMPs that alter the main phase transition DMPC and 2:1 DMPC:DMPG LUVs and present significant and broad antimicrobial activity; Cluster 5: The peptide cluster 5 is composed solely of AMPs; details: cluster membership from HCA of first five principal components of PCA2 (DSC data)
[2] = design: method as in earlier work; details: CD [θ]222 nm, 2012 dataset; cited from earlier work
[3] = design: method as in earlier work; details: CD [θ]222 nm, DMPC LUVs, 2012 dataset; cited from earlier work
[4] = design: method as in earlier work; details: CD [θ]222 nm, 2:1 DMPC:DMPG LUVs, 2012 dataset; cited from earlier work
[5] = Far-UV CD, percent helicity in buffer; type: physicochemical; details: CD [θ]222 nm, 40 μM peptide in buffer, method of Chen et al., 2016 dataset
[6] = Far-UV CD, percent helicity with DMPC LUVs; type: physicochemical; details: CD [θ]222 nm, 40 μM peptide + DMPC LUVs, 2016 dataset
[7] = Far-UV CD, percent helicity with 2:1 DMPC:DMPG LUVs; type: physicochemical; details: CD [θ]222 nm, 40 μM peptide + 2:1 DMPC:DMPG LUVs, 2016 dataset
[8] = DSC of DMPC LUVs with peptide; details: 2016 dataset; for Tm_broad_pc, transition temperature of broad component: 0.5 mM DMPC LUVs + 20 μM peptide (4 mol%), pH 7.4, P′β→Lα transition, non-two state fit; for H_broad_pc, transition enthalpy of broad component / H_sharp_pc, transition enthalpy of sharp component / Hv_broad_pc, van´t Hoff transition enthalpy of broad component / Hv_sharp_pc, van´t Hoff transition enthalpy of sharp component / Tm_sharp_pc, transition temperature of sharp component: DMPC LUVs + 4 mol% peptide
[9] = DSC of 2:1 DMPC:DMPG LUVs with peptide
[10] = 2:1 DMPC:DMPG LUVs + 4 mol% peptide, 2016 dataset

Sequence	Cluster [1]	% Helicity (Buffer) [2]	% Helicity 0.01 peptide/DMPC (mol/mol) [3]	% Helicity 0.01 peptide/(2:1 DMPC/DMPG) (mol/mol) [4]	also measured
FINKAGKLQSQLRTTVVAAAAFLDAFQKVA [O43312(33-62)]	Cluster 4	11.9%	42.9%	56.4%	–
FKQFHFKDFNRAFGFMTRVALQAEKL [P61458(35-60)]	Cluster 2	7.6%	6.1%	23.5%	–
FLSLIPHAINAVSTLVHHF [PS-2, AMP from the skin secretion of Phyllomedusa azurea, reference compound]	Cluster 3	5.6%	32.1%	33.4%	% Helicity (Buffer) [5]: 10.5%; % Helicity 0.01 peptide/DMPC (mol/mol) [6]: 42.5%; % Helicity 0.01 peptide/(2:1 DMPC/DMPG) (mol/mol) [7]: 59.7%
GHRGALKDWVQAAGGAVAAFDFTTKG [Q8RW88(70-95)]	Cluster 1	17.0%	12.4%	14.9%	–
GIGDILKNLAKAAGKAALHAVGESL [HSP-4, Hylaseptin-4, reference compound]	Cluster 5	11.8%	94.3%	90.3%	% Helicity (Buffer) [5]: 12.4%; % Helicity 0.01 peptide/DMPC (mol/mol) [6]: 98.1%; % Helicity 0.01 peptide/(2:1 DMPC/DMPG) (mol/mol) [7]: 96.6%
GIGKFLHSAKKFGKAFVGEIMNS [Mag-2a, Magainin-2a, reference compound]	Cluster 3	2.3%	3.3%	38.5%	Tm_broad_pc, transition temperature of broad component [8]: 23.58 °C; H_broad_pc, transition enthalpy of broad component [8]: 2759 kcal/mol; H_sharp_pc, transition enthalpy of sharp component [8]: 2773 kcal/mol; Hv_broad_pc, van´t Hoff transition enthalpy of broad component [8]: 191700 kcal/mol; Hv_sharp_pc, van´t Hoff transition enthalpy of sharp component [8]: 555900 kcal/mol; Tm_sharp_pc, transition temperature of sharp component [8]: 23.93 °C; % Helicity (Buffer) [5]: 7.5%; % Helicity 0.01 peptide/DMPC (mol/mol) [6]: 1.8%; % Helicity 0.01 peptide/(2:1 DMPC/DMPG) (mol/mol) [7]: 47.6%
GLKDMIKNLAKEAAVKLAGAVINKFSPQPQ [Nat-1, Nattererin-1, reference compound]	Cluster 4	14.3%	64.1%	75.5%	% Helicity (Buffer) [5]: 12.8%; % Helicity 0.01 peptide/DMPC (mol/mol) [6]: 48.0%; % Helicity 0.01 peptide/(2:1 DMPC/DMPG) (mol/mol) [7]: 79.5%
GLNTLKKVIQGLHEVIKLVNNHA [Pseudin B, AMP of the 2012 dataset, reference compound]	Cluster 4	14.8%	72.2%	68.7%	–
GLWQIFSSKEEGKDNSQQKSKGDQAKEL [gb|ACU24018.1|(73-101)]	Cluster 1	5.9%	5.3%	6.3%	–
GLWSTIKQKGKE [DS 01 (1-12), fragment 1–12 of DS 01, 2012 dataset, reference compound]	Cluster 1	6.9%	4.2%	12.1%	–
GVLDILKGAAKDLAGHVATKVINKI [Syphaxin, AMP of the 2012 dataset, reference compound]	Cluster 5	9.7%	68.2%	76.7%	–
IAAAQRITSGAADIAINWAGGLHHAKK [B0CZJ3(104-130)]	Cluster 1	20.0%	16.0%	19.3%	–
KLKKLLAGQKDGLLGQIAAMSDLYTKK [P94692(929-955)]	Cluster 2	5.8%	8.1%	34.3%	–
LAKRRVLTLLRQLRRVSPSS [Q7YRI0(9-28)]	Cluster 2	13.4%	12.0%	43.8%	–
LLDKLKRTLLSIEAVLI [Tc11, putative IAP, EOY17584.1 (39–55)]	Cluster 2	–	–	–	Tm_broad_pc, transition temperature of broad component [8]: 23.59 °C; H_broad_pc, transition enthalpy of broad component [8]: 3818 kcal/mol; H_sharp_pc, transition enthalpy of sharp component [8]: 2201 kcal/mol; Hv_broad_pc, van´t Hoff transition enthalpy of broad component [8]: 109500 kcal/mol; Hv_sharp_pc, van´t Hoff transition enthalpy of sharp component [8]: 514800 kcal/mol; Tm_sharp_pc, transition temperature of sharp component [8]: 23.68 °C; Tm_broad_pcpg, transition temperature of broad component ([9]; 0.5 mM 2:1 DMPC:DMPG LUVs + 20 μM peptide (4 mol%), pH 7.4, 2016 dataset): 24.89 °C; H_broad_pcpg, transition enthalpy of broad component [9, 10]: 2151 kcal/mol; H_sharp_pcpg, transition enthalpy of sharp component [9, 10]: 2118 kcal/mol; Hv_broad_pcpg, van´t Hoff transition enthalpy of broad component [9, 10]: 118200 kcal/mol; Hv_sharp_pcpg, van´t Hoff transition enthalpy of sharp component [9, 10]: 632200 kcal/mol; Tm_sharp_pcpg, transition temperature of sharp component [9, 10]: 24.51 °C; % Helicity (Buffer) [5]: 45.8%; % Helicity 0.01 peptide/DMPC (mol/mol) [6]: 57.0%; % Helicity 0.01 peptide/(2:1 DMPC/DMPG) (mol/mol) [7]: 56.7%
LRPAILVRVKGKGL [Hyposin HA-6, peptide of the 2012 dataset, reference compound]	Cluster 1	16.1%	11.9%	15.5%	–
SLWKNLSRKISGAVKAQPDLHTLLPLPGS [Q9XEY7(120-148)]	Cluster 2	8.1%	8.8%	33.8%	–
